PubChem BioAssay AID1259414 – Drosophila RNAi Screening Center, 2018
Aim: 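Genome-wide screen for host control of endosymbiont load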 (primary screen). System: Drosophila JW18 cells infected with Wolbachia. Reagents: long dsRNA against Drosophila genes, 0.25 µg dsRNA per well of a 384-well plate. Duration: 5 days. Conditions: cells persistently infected with Wolbachia before knock-down; no added drug. Detection: 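Imaged fluorescence in situ signal for Wolbachia 23S rRNA per DAPI-counted host cell, given as a robust z-score within each plate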. Scale: Wolbachia per cell robust z: higher = more Wolbachia per host cell than the plate typical. Call rule: 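Active if absolute robust z reaches 1.5 in two or more of three replicates, leaving out multi- or no-target dsRNAs, genes unexpressed in JW18 and A1 wells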.
The deposit covers about 24,000 reagents; below is a random part of those that have a named target and a result. Over the whole deposit, about 1,210 (5%) got an active call. 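Inactive calls also include excluded dsRNAs with several or no targets, genes unexpressed in JW18, and well A1, regardless of score.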 Unmarked entries are inactive. Names joined by + are all predicted targets of the reagent.

gene | dsRNA | Wolbachia per cell robust z, rep 1 | Wolbachia per cell robust z, rep 2 | Wolbachia per cell robust z, rep 3
Mcm2 (Minichromosome maintenance 2) | DRSC16734 | 0.558 | 0.994 | -0.368
Mcm2 (Minichromosome maintenance 2) | DRSC26612 | -0.155 | -0.112 | 0.614
CG15536 | DRSC15072 | -3.13 | -1.39 | -0.00167
CG15536 | DRSC22844 | 0.359 | -0.663 | -0.155
CG15536 | DRSC27663 | -0.636 | -2.04 | 0.452
CG6785 | DRSC02993 | -1.67 | 0.892 | -0.162
CG6785 | DRSC25446 | -0.101 | -0.427 | 0.0218
CG12499 | DRSC14521 | 0.036 | -0.003 | 0.00407
CG13251 | DRSC11699 | 0.198 | 0.282 | 0.546
CG13251 | DRSC27385 | 0.182 | 0.631 | 0.486
wls (wntless) | DRSC10605 | -2.57 | 0.689 | -0.393
wls (wntless) | DRSC29313 | -0.246 | -0.533 | -1.74
RpL29 (Ribosomal protein L29) | DRSC04650 | -0.921 | -0.0382 | -0.16
Oct-TyrR (Octopamine-Tyramine receptor) | DRSC11883 | 0.992 | 0.767 | -0.808
insb (insensible) | DRSC06995 | -3.4 | -0.967 | -1.02
insb (insensible) | DRSC24404 | 0.291 | -1.28 | -2.62
Spn75F (Serpin 75F) | DRSC09589 | -0.325 | -0.311 | -0.213
mahe (maheshvara) | DRSC17755 | 0.381 | -0.921 | -0.662
mahe (maheshvara) | DRSC24030 | -0.0373 | -6.45 | -0.913
CG3702 | DRSC00628 | -0.34 | 0.505 | -1.07
hbt (headbutt) | DRSC02549 | 0.474 | -0.304 | 0.347
hbt (headbutt) | DRSC25187 | -0.458 | 0.0124 | 0.322
CG9014 | DRSC01979 | 0.0862 | 1.61 | 0.844
CG33923 | DRSC37808 | 0.576 | 1.44 | 0.739
Drep3 (DNA fragmentation factor-related protein 3) | DRSC07529 | 0.861 | -1.18 | -0.0816
Drep3 (DNA fragmentation factor-related protein 3) | DRSC22344 | -0.475 | 0.168 | -0.0644
CG5339 | DRSC04496 | 1.07 | 0.235 | 0.57
CG15765 | DRSC23026 | -0.296 | 0.313 | -3.42
CG15765 | DRSC29271 | -0.107 | 0.133 | 0.408
CG13471 | DRSC10015 | 0.213 | -0.099 | -1.39
Mlp60A (Muscle LIM protein at 60A) | DRSC04623 | 1.05 | 0.0484 | 1.05
Mlp60A (Muscle LIM protein at 60A) | DRSC22233 | 0.581 | 0.55 | -0.513
Mlp60A (Muscle LIM protein at 60A) | DRSC22481 | -0.419 | 0.389 | 0.408
CG4983 | DRSC02799 | 0.709 | -0.491 | 0.705
CG4983 | DRSC26444 | 0.851 | -0.147 | 1.37
CG6262 | DRSC23105 | -0.0634 | 0.0456 | -0.221
CG6262 | DRSC27998 | -5.47 | -0.337 | -0.176
PIP82 | DRSC18694 | -0.933 | 0.397 | 0.203
PIP82 | DRSC25335 | 0.793 | 0.584 | 1.42
CG12003 | DRSC08214 | -2 (active) | -0.887 | -3.56
CG13502 | DRSC04147 | 0.323 | 0.812 | -0.533
CG13502 | DRSC26374 | 0.504 | -0.401 | -1.15
Ars2 (Arsenic resistance protein 2) | DRSC04893 | 1.41 | 0.178 | 0.886
Kul (Kuzbanian-like) | DRSC15404 | -0.0791 | 0.103 | 1.05
Kul (Kuzbanian-like) | DRSC25888 | -1.26 | -0.246 | 0.156
CG15296 | DRSC17983 | 0.125 | 0.998 | -0.0806
CG15296 | DRSC26051 | 1.33 | 0.594 | 1.48
Tab2 (TAK1-associated binding protein 2) | DRSC07481 | 0.241 | -0.234 | -2.4
CG2736 | DRSC04314 | 0.607 | -7.57 | -0.242
CG15014 | DRSC08468 | 0.745 | 0.6 | -0.123
CG15014 | DRSC27374 | -1.08 | -0.155 | -0.645
Taf2 (TBP-associated factor 2) | DRSC11298 | 0.623 | -0.676 | -1.39
Taf2 (TBP-associated factor 2) | DRSC26215 | 0.119 | 0.0241 | -1.58
CR41454 + CG33217 | DRSC38608 | -3.14 (active) | -4.32 | -1.22
CG18766 | DRSC15936 | -2.79 | 1 | 0.751
CG18766 | DRSC25739 | -1.36 | -0.279 | 0.0604
P32 | DRSC06988 | -0.806 | -3.15 | 0.825
lncRNA:CR13130 (long non-coding RNA:CR13130) | DRSC02226 | -0.271 | 1.49 | 0.949
lncRNA:CR13130 (long non-coding RNA:CR13130) | DRSC25021 | -0.475 | 0.88 | -1.92
Sap130 (Sin3A-associated protein 130) | DRSC09680 | -1.5 | 1.82 | -0.00993
Sap130 (Sin3A-associated protein 130) | DRSC28079 | -2.09 | 1.15 | 2
CheB38a (Chemosensory protein B 38a) | DRSC03205 | -3.08 | -1.18 | -0.908
CheB38a (Chemosensory protein B 38a) | DRSC29814 | 0.0301 | -0.154 | 0.604
CG43315 | DRSC06296 | -0.0191 | 0.415 | 0.722
ChAT (Choline acetyltransferase) | DRSC16609 | -0.154 | 0.578 | -5.64
ChAT (Choline acetyltransferase) | DRSC22755 | -0.703 | -1.76 | -1.47
tim (timeless) | DRSC00841 | 0.829 | 0.266 | -0.249
Phs (Phaser) | DRSC10827 | -1.59 | 0.989 | 0.508
Phs (Phaser) | DRSC29714 | -2.24 | 0.944 | 0.165

Single entries from above:
CG15296 [DRSC26051], Wolbachia per cell robust z, rep 3: 1.48
lncRNA:CR13130 (long non-coding RNA:CR13130) [DRSC02226], Wolbachia per cell robust z, rep 1 → -0.271
Result of CG5339 [DRSC04496] in “Wolbachia per cell robust z, rep 1”: 1.07
CheB38a (Chemosensory protein B 38a) [DRSC03205], Wolbachia per cell robust z, rep 3: -0.908
tim (timeless) [DRSC00841], Wolbachia per cell robust z, rep 2 → 0.266
Entry of CG13502 [DRSC26374] in “Wolbachia per cell robust z, rep 1”: 0.504
